Data reported in US20230248626A1, “Compositions Comprising (Bio)-Alkanediols” (Symrise AG, priority 0001, published 2023).
Where “and” joins values, the source holds several entries; their conditions need not be identical. Equal entries are not always repeated.

Tests used:
[1] = Malodour coverage of sweat malodour on filter paper, trained panel (Example B.1); settings: scale 0 to 10 (0: odorless; 10: strongest imaginable)
[2] = Odor intensity of fragrance blend sprayed on paper stripes, untrained panelists (Example B.2); settings: 1=weak odor, 5=strong odor, 2.0% alkanediol in total with 1% FRA-Blend in ethanol/water
[3] = Boosting/masking effect on fragrance blend, paper stripes dunked, untrained panelists (Example B.4); settings: 1=weak odour; 5=strong odour; 2.0% alkanediol in total with 1% FRA-Blend

| Compound | malodour value, 6 h [1] | malodour value, Fresh [1] | odor intensity, mean value, after 10 minutes [2] | odor intensity, mean value, after 25 minutes [2] | odor intensity, single panelist, after 10 minutes ([2]; listed as 1,2-C7) | odor intensity, single panelist, after 25 minutes ([2]; listed as 1,2-C7) | odour (fragrance) intensity, mean value, after 10 min [3] | odour (fragrance) intensity, mean value, after 30 min [3] | odor intensity, single panelist, after 25 minutes ([2]; listed as 1,2-C8) | odor intensity, single panelist, after 10 minutes ([2]; listed as 2,3-C7) | odor intensity, single panelist, after 25 minutes ([2]; listed as 2,3-C7) | odor intensity, single panelist, after 10 minutes ([2]; listed as 2,3-C8) | odor intensity, single panelist, after 25 minutes ([2]; listed as 2,3-C8) |
| --- | --- | --- | --- | --- | --- | --- | --- | --- | --- | --- | --- | --- | --- |
| CCCCCC(O)CO (stereo not drawn) [1,2-heptanediol] | 4.8 | 5.6 and 5.7 | 2.4 | 2.4 | 3 and 2 | 2 and 3 | 2.4 | 2.4 |  |  |  |  |  |
| CCCCCCC(O)CO (stereo not drawn) [1,2-octanediol] |  |  | 3.4 | 2.6 |  |  |  |  | 2 and 3 |  |  |  |  |
| CCCCC(O)C(C)O (stereo not drawn) [2,3-heptanediol] |  |  | 3.0 | 2.4 |  |  |  |  |  | 4 and 3 and 2 | 4 and 2 |  |  |
| CCCCCC(O)C(C)O (stereo not drawn) [2,3-octanediol] |  |  | 3.4 | 2.8 |  |  | 3.3 | 3.1 |  |  |  | 3 and 4 | 3 and 2 |
